Assay results from PMC12542678.
Construct, isoform or probe ends are uncertain for at least one entry.

system: His-CalR (Vibrio parahaemolyticus RIMD2210633); assay: EMSA; settings: 10 uL: 10 mM Tris-HCl pH 7.5, 50 mM NaCl, 1 mM MgCl2, 0.5 mM EDTA, 0.5 mM DTT, 0.625 ug/mL salmon sperm DNA, 100 ng target DNA, 0-13.80 pmol His-CalR, recombinant protein, protein details: 6xHis, probe letters rebuilt from the primers and the genome

Sequence | binding result
GCGCGAATTCAAGCGAACTCCATCTCATAAGAACGAATTAGTCCTTTGTGTTTCATGACCTAGTTTCCCTTCTAGCACGCTACCGCCATTGGGGTGATTGCCCAATAGCCGTGTCGCGAACGTTTTAATTGATGAGCAGAGACATTTCTATGAATGTTTCTGAATTTCTGTAACGCATAAATTCGAAGGTAAGTTTAAAAATTCGTGTTGTTTAGGTAAGTGGAAATAAGAATGAAATTTAGACCTTTGGCTAAGTTTTGCTGTTTAGGAAAAAGCTGGTACTTGCTAAGCAGGGATGAGGAAAAGTATTAAGAAGCGAGTTTGATTATAAAAACTAAGGTTTAATTTCTTGATGGTCTAACGGATGACTTATTTACAGGGAAGGTCGACGCGC (double strand) [cpsA promoter] | binds
GCGCGAATTCAGCATAGATACAAGAAAACAAAATGATAATAAAGTTGAGGGTTCTTATATCTAAATAGTGACTCTCCATATGTGCTCCACAGCGAACCATTACTCGGGCAACTCCTTTGCCCGTCATCAATAAACGTCCAGTATGTTAGCGTAATTATAGAATGATGTCTTAAGTTAAGCGGCTATTCGTTGACCAGCTCGAATTCTTTGATTTCTTCTGCTTTTTTAGTGAACAAAAGTCCGATCGTTGCCATGATGACACTAGGTACAATCCAGCTCGCGAACTCATTATACAAAGGCATGTTGTGGCTCATCCATTGGTCTACGGCTTCTGGCATGTAGCCCAAAATGTGCAGAGCATCGACACAACCAAATGCTAGTGCGGTGAACGCGGTAAGCACCAACATGAACTGAGACATTTTGTTGCGAACGGGTGCCATCATCATCAAAGCAATCGCCACAGGATGAAGTGCCACAACCGCAGGTAAAGTGATTGCCAATAGCTGCTCTAAACCGATGTTGGCGATAAAGCCTGACAGTACCATGGTGATGACGACACAGCTTTTGTAGTTCACTTTGCTAAAGGTGTTGTCATAGAGTCGACGCGC (double strand) [vpa0184 promoter] | binds
GCGCGAATTCCGAGCGAATTACTATTTGGATCAAAGGTAAACCTTTGAGCAAGTAGAAATTTGGTGCCGATGTTAGTCATTTAGTTCTTCTTAGATGGATGATGTTGTAATTATGGTGATTTATATCACAAAATTACGTTTGCGCATGGGAGATACGCGACGTTTTAGATGCTTTTAGGGGGGTAGGATAATTAAATTTTTCTAAAAAAACACCGTTTTTAGCAATATTGACCTTGAATTTACATTTGTCAGCCACATGTTAAATGACATCTTAGTGTGGTGATTTCATGGGGCTAAATCACAAAGTCGTCCCTGAAAAAGCCTGTTAGTTTAGATGTTATGGAGCACACATGAGCGAAACCGTATCTCAAAATAAAGAAACTCGTGGTTTTCAATCAGAAGTAAAACAACTACTTCATTTAATGATCCATTCTCTTTATTCCAATAAAGAGATCTTTTTGCGCGAGCTGATTTCTAACGCATCAGATGCATCAGACAAATTGCGTTTTCAGGCACTTTCGAATCCAGATTTATATGAAGGTAACGCAGATCTTGGCGTTAAGCTGTCATTTGATGAAAGTGCAAATACCTTAACGATGTCGACGCGC (double strand) [toxR promoter (positive control)] | binds
GCGCGAATTCGTCTTGCTGATTCTGATGCAACAGCTCAATAACACCAACACACAAAGCAACAAAAGCGAAAAAGAACAGTGCAAAATAGCACTGCTTTCTGGGTGAATAACGCATTAGCTCCCCACTAGCTCGTCCGTTACTACGAGAATTATTCTTTTATTGTTAAAATTCTTATTATCTACAAGAATAACCAATAGCCTTTGCAAAGGTAATAATTATCTGAAATTTTTATGGTTTAAATAGGCAACGGGATGCAAGGACAAGGCGATTTATTTGAAAGTACGGATTGGCAAGAGGTACGCCAAGGTAAGCTCTTTTATCAGCCAAACTTTCTTTCTCAGCAAGAAGCGGATACGTACTTTTCAACGCTTATGAGTACCTTGCCTTGGCAACAAGAACGCATAACCATTTTCGGGAAATCGGTACTTCAACCTCGTTTGCAGACTTGGCATGGCGATGCGCCTTACACCTATTCGGGTTTAACCATGGCACCTCACCCTTGGACGTCTGAGCTGTCATCACTCAAGGCTCGCTGTGAAAGCCTTGCCAACACCCCGTTCAACTCTGTATTGGCGAATCTGTATCGCGACGGTCAGGACTCGATGGGATGGCACCAAGACAATGAACCAGAGGTCGACGCGC (double strand) [vpa0198 promoter] | binds
GCGCGTCGACCAATAGGATGATGAAACCGATGCGGCGGCAAAGCATGTGGATGGCATGCTTTGCTGCTTGCTTGTGCTTAGCATTATTACTAAGTTGTTCATCGAAAGTTATATAAAAAGAGGAACAAATGAGCTTTATGAGTAAGTGGTAATTTCTGTAATAACCATAAGTTATGTATGCCTTTTGTTTGTCGTGAAGGTCAATAATCTCATTGGATCGAGCGATGTATAGTCGCTAAATTAAGTTGGCAACTTTTCCGTGCTGTTATTGGCATTTAGTACCCATTGTTTGACCTTAATACGAAAAACGACATTACCCATCAACAATGTTTGCCTGAGTTTCGGCTGTTGTATTAACGGCTGCATTTTCTGCAGTTGAAGATAACTACTTTACAAAAGAACTCTCCATGCAAACTCGCCGCGAACTCTTCTTTGCCCCTTTTCAGCGTCTGGCTGTAATCGCAGAGCAATGGCGAGCTGGGTCTAAATCTTACTTGAATTCGCGC (double strand) [vpa1429 promoter] | binds
GCGCGTCGACGGTCTTGCCATTTACGAGTTTGAAGTTGGCCTTCAACGTAAACTTGTGAACCTTTACGCAGGTACTCACCAGCAACTTCTGCCAACTTACCGAACAACACAACACGGTGCCATTCTGTTTTTTCGCGCTGTTCGCCAGTCGCTTTGTCACGCCATGACTCAGAAGTAGCAATCGTGATGTTTGCTACCGCACCGCCATTAGGCATGTAACGAATTTCAGGGTCGTTACCTAGATTCCCCACCAAAATAACTTTGTTAATTCCACGGCTGGCCATGATGTGCTCCGTTTCACTCTGGATCTGTATATTAATTTTAGCGCAATAGAATACACGCTTTGATGTTTTGGTTAAAGCCCAATGCCATTGTGTTCGATCACGCCCTACGCTAGAACCAAAATCTCAGTTCAACTTTCATATGTAGCATTTTTGATTCGCGTTGCAGACTTCATTCGTGAACCTTTGAATCTCAACGCATTTATTCACCAAAGCTATAGCTCTCCCCATACTTTAATGCCAACTTACGGCCTCTACAGAACCTTGGGAGATTTGAACACGTGAGAAAGTCGGCTTACGCAAGAAAGCTATTTCTGATTAGTATGGAAGACGATGCTGCGGAATTCGCGC (double strand) [scrP promoter] | binds
